From US20240109955A1 (published 2024)

How the values were obtained:
Assay in all cases: cell-based or functional assay
[1] = target: SARS-CoV-2 spike (S) protein, Delta variant B.1.617.2 (SARS-CoV-2, UniProt P0DTC2 14-1273)
[2] = target: SARS-CoV-2 spike (S) protein, Omicron sublineage BA.4/5 (SARS-CoV-2, UniProt P0DTC2 14-1273)
[3] = target: SARS-CoV-2 spike protein, Omicron sublineage BA.2.75.2 (R346T, F486S) (SARS-CoV-2, UniProt P0DTC2)
[4] = target: SARS-CoV-2 spike protein, D614G mutant (SARS-CoV-2, UniProt P0DTC2 14-1273)

B1: MX835 (other)
chain 1: QTVVTQEPSFSVSPGGTVTLTCGLSSGSVSTAYFPSWYQQTPGQAPRTLIYGTNTRSSGVPDRFSGSILGNKAALTITGAQADDESDYYCVLYMGRGIVVFGGGTKLTVLGGSSGEIVLTQSPGTLSLSPGERATLSCRASQSVSSSYLAWYQQKPGQAPRLLIYSASSRATGIPDRFSGSGSGTDFTLTISRLEPEDFAVYFCQQYGGLTGWTFGQGTKVEIKGGGGSGGSGSGGGGSASGSGQMQLVQSGPEVKKPGTSVKVSCKASGFTFTSSAVQWVRQRQRLEWIGWIVVGSGNTNYAQKFQERVTITRDMSTSTAYMELSSLRSEDTAVYYCAAPNCSNVVCYDGFDIWGQGTMVTVSSGGSSGQVQLVESGGGVVQPGRSLRLSCAASGFTLSSYGMHWVRQAPGKGLEWVAVISYDGSNKYYVDSVKGRFTISRDNSKNTLYLQMNSLRAEDTAVYYCRWAYWELLPDYYYGMDVWGQGTTVTVSSASGGSGDKTHTCPPCPAPELLGGPSVFLFPPKPKDTLMISRTPEVTCVVVDVSHEDPEVKFNWYVDGVEVHNAKTKPREEQYNSYVVSVLTVLHQDWLNGKEYKCKVSNKALPAPIEKTISKAKGQPREPQVYTLPPCRDELTKNQVSLWCLVKGFYPSDIAVEWESNGQPENNYKTTPPVLDSDGSFFKKLTVDKSRWQQGNVFSCSVLHEALHSHYTQKSLSLSPG
chain 2: EIVLTQSPGTLSLSPGERATLSCRASQSVSSSYLAWYQQKPGQAPRLLIYSASSRATGIPDRFSGSGSGTDFTLTISRLEPEDFAVYFCQQYGGLTGWTFGQGTKVEIKGGSSGDIQMTQSPSSVSASVGDRVIITCRASQGISSWLAWYQQKPGKAPKVLIYDASSLQSGVPSRFSGSGYGTDFTLTISSLQPEDSATYYCQQAKSFPITFGQGTRLEIKGGGGSGGSGSGGGGSASGSGQVQLVESGGGVVQPGRSLRLSCAASGFTFSSYAFHWVRQAPGKGLEWVAVISYDGSNQYYADSVKGRFTISRDNSKNTLYLQMNSLRADDTAVYYCARDLAIAVAGTWHYYNGMDVWGQGTTVTVSSGGSSGQMQLVQSGPEVKKPGTSVKVSCKASGFTFTSSAVQWVRQRQRLEWIGWIVVGSGNTNYAQKFQERVTITRDMSTSTAYMELSSLRSEDTAVYYCAAPNCSNVVCYDGFDIWGQGTMVTVSSASGGSGDKTHTCPPCPAPELLGGPSVFLFPPKPKDTLMISRTPEVTCVVVDVSHEDPEVKFNWYVDGVEVHNAKTKPREEQYNSYVVSVLTVLHQDWLNGKEYKCKVSNKALPAPIEKTISKAKGQPREPQVCTLPPSRDELTKNQVSLSCAVKGFYPSDIAVEWESNGQPENNYKTTPPVLDSDGSFFLVSKLTVDKSRWQQGNVFSCSVLHEALHSHYTQKSLSLSPG
Q: Which “IC50, pseudovirus neutralization” value [1] does the source give for B1 here?
A: The value was 7.96 nM.

Q: And the “IC80, pseudovirus neutralization” value [1]?
A: Its value is 34.9 nM.

Q: And the “IC50, pseudovirus neutralization” value [2]?
A: Its value is 8.32 nM.

Q: What about the “IC80, pseudovirus neutralization” value [2] of the same binder?
A: The value was 27.4 nM.

B2: MX834 (other)
chain 1: B1 chain 1 with G208V
chain 2: B1 chain 1 with G208V
Q: With B2 as the binder, how does the “IC50, pseudovirus neutralization” value [3] read?
A: Its value is greater than 10000 nM.

Q: And the “IC80, pseudovirus neutralization” value [3]?
A: Its value is greater than 10000 nM.

B3: MX828 + 829 (other)
chain 1: B1 chain 1 with G208V, C632S, W644T
chain 2: DIQMTQSPSSVSASVGDRVIITCRASQGISSWLAWYQQKPGKAPKVLIYDASSLQSGVPSRFSGSGYGTDFTLTISSLQPEDSATYYCQQAKSFPITFGQGTRLEIKGGSSGEIVLTQSPGTLSLSPGERATLSCRASQSVSSSYLAWYQQKPGQAPRLLIYSASSRATGIPDRFSGSGSGTDFTLTISRLEPEDFAVYFCQQYVGLTGWTFGQGTKVEIKGGGGSGGSGSGGGGSASGSGQMQLVQSGPEVKKPGTSVKVSCKASGFTFTSSAVQWVRQRQRLEWIGWIVVGSGNTNYAQKFQERVTITRDMSTSTAYMELSSLRSEDTAVYYCAAPNCSNVVCYDGFDIWGQGTMVTVSSGGSSGQVQLVESGGGVVQPGRSLRLSCAASGFTFSSYAFHWVRQAPGKGLEWVAVISYDGSNQYYADSVKGRFTISRDNSKNTLYLQMNSLRADDTAVYYCARDLAIAVAGTWHYYNGMDVWGQGTTVTVSSASGGSGDKTHTCPPCPAPELLGGPSVFLFPPKPKDTLMISRTPEVTCVVVDVSHEDPEVKFNWYVDGVEVHNAKTKPREEQYNSYVVSVLTVLHQDWLNGKEYKCKVSNKALPAPIEKTISKAKGQPREPQVYTLPPSRDELTKNQVSLTCLVKGFYPSDIAVEWESNGQPENNYKTTPPVLDSDGSFFKKLTVDKSRWQQGNVFSCSVLHEALHSHYTQKSLSLSPG
Q: B3 was tested. Which “IC50, pseudovirus neutralization” value [4] did it give?
A: The value was 3 nM.

Q: What about the “IC80, pseudovirus neutralization” value [4] of the same binder?
A: The value was 4 nM.

B4: MX838 (other)
chain 1: B1 chain 1
chain 2: DIQMTQSPSSVSASVGDRVIITCRASQGISSWLAWYQQKPGKAPKVLIYDASSLQSGVPSRFSGSGYGTDFTLTISSLQPEDSATYYCQQAKSFPITFGQGTRLEIKGGSSGEIVLTQSPGTLSLSPGERATLSCRASQSVSSSYLAWYQQKPGQAPRLLIYSASSRATGIPDRFSGSGSGTDFTLTISRLEPEDFAVYFCQQYGGLTGWTFGQGTKVEIKGGGGSGGSGSGGGGSASGSGQMQLVQSGPEVKKPGTSVKVSCKASGFTFTSSAVQWVRQRQRLEWIGWIVVGSGNTNYAQKFQERVTITRDMSTSTAYMELSSLRSEDTAVYYCAAPNCSNVVCYDGFDIWGQGTMVTVSSGGSSGQVQLVESGGGVVQPGRSLRLSCAASGFTFSSYAFHWVRQAPGKGLEWVAVISYDGSNQYYADSVKGRFTISRDNSKNTLYLQMNSLRADDTAVYYCARDLAIAVAGTWHYYNGMDVWGQGTTVTVSSASGGSGDKTHTCPPCPAPELLGGPSVFLFPPKPKDTLMISRTPEVTCVVVDVSHEDPEVKFNWYVDGVEVHNAKTKPREEQYNSYVVSVLTVLHQDWLNGKEYKCKVSNKALPAPIEKTISKAKGQPREPQVCTLPPSRDELTKNQVSLSCAVKGFYPSDIAVEWESNGQPENNYKTTPPVLDSDGSFFLVSKLTVDKSRWQQGNVFSCSVLHEALHSHYTQKSLSLSPG
Q: For B4, which “IC50, pseudovirus neutralization” value [1] is on record?
A: The value was 36.4 nM.

Q: And the “IC80, pseudovirus neutralization” value [1]?
A: The value was 39.9 nM.

Q: What about the “IC50, pseudovirus neutralization” value [2] of the same binder?
A: The value was 7.84 nM.

Q: What about the “IC80, pseudovirus neutralization” value [2] of the same binder?
A: The value was 16 nM.

B5: MX830 (bispecific antibody)
chain: B1 chain 1 with C632S, W644T
Q: Which “IC50, pseudovirus neutralization” value [4] does the source give for B5 here?
A: The value was 5 nM.

B6: MX835 (other)
chain 1: B1 chain 1
chain 2: B1 chain 2
Q: How did the “IC50, pseudovirus neutralization” value [3] turn out when B6 was run?
A: The value was greater than 10000 nM.

Q: What about the “IC80, pseudovirus neutralization” value [3] of the same binder?
A: Its value is greater than 10000 nM.

B7: MX837 (other)
chain 1: B1 chain 1 with G208V
chain 2: B4 chain 2 with G205V
Q: Which results are given for B7?
A: IC50, pseudovirus neutralization [3]: > 10000 nM; IC80, pseudovirus neutralization [3]: > 10000 nM

B8: MX838 (other)
chain 1: B1 chain 1
chain 2: B4 chain 2
Q: For B8, which “IC50, pseudovirus neutralization” value [3] is on record?
A: Its value is greater than 10000 nM.

Q: And the “IC80, pseudovirus neutralization” value [3]?
A: Its value is greater than 10000 nM.

Positions count from the first letter of the chain named.
